From article PMC9923724, “Half sandwich-type osmium, ruthenium, iridium and rhodium complexes with bidentate glycosyl heterocyclic ligands induce cytostasis in platinum-resistant ovarian cancer cells and bacteriostasis in Gram-positive multiresistant bacteria” (Frontiers in Chemistry, 2023)

What was measured:
Assay type in all cases: cell-based
Details in all cases: Hill slope
[1] = test system: A2780 ovarian cancer cells; assay: SRB assay (cytostasis, 48 h) on A2780 cells
Description: First, we assessed a set of osmium complexes (similar to Ia [[Kacsir et al., 2022]) in Figure 1] and their sugar-derived ligands, in which the benzoyl protective groups on the carbohydrate moiety were replaced by aliphatic acyl groups of different chain length (straight chain C3-C7–CO). Osmium was selected as a central ion, since osmium complexes had the best biological activity in our previous studies ([Balázs et al., 2022]; [Kacsir et al., 2022]). These compounds were tested on A2780 ovarian cancer cells for toxicity and cytostasis. The therapy of ovarian cancer is centered around platinum compounds ([Brown et al., 2019]; [Sipos et al., 2021]), therefore, it was logical to use a cellular model of ovarian cancer for the initial testing of the compounds. Toxicity was assessed using the MTT assay that measures the activity of mitochondrial complex I. We chose 4 h long treatment as in an MTT assay this time point is suitable to detect rapid, direct toxicity. Cytostasis was assessed after 48 h of treatment using the SRB assay that assesses protein content that corresponds to cell count. The characteristics of the compounds are detailed in Table 2.
3 × 10^3 A2780 cells, were plated to 96 well plates. Cells were treated with the compounds in the concentrations indicated for either 4 h for an MTT assay or for 48 h for an SRB assay. Data is represented as average ± SD, from three biological replicates; individual assays were performed in duplicates. Values were normalized for vehicle treated cells, absorbance for vehicle treated cells equals to 1. […] Except for the Os-6 complex, Two-way ANOVA test was performed and all values were compared with each other (Tukey’s post hoc test). […] Non-linear regression was performed on the data.
(§1) 3 × 10^3 A2780 cells, 2 × 10^3 ID8 cells and 4 × 10^3 primary fibroblasts were plated to 96 well plates. Cells were treated with the compounds in the concentrations indicated for either 4 h for an MTT assay or for 48 h for an SRB assay. Data is represented as average ± SD, from three biological replicates; individual assays were performed in duplicates. Values were normalized for vehicle treated cells, absorbance for vehicle treated cells equals to 1. Statistical significance was assessed using two-way ANOVA test comparing the free ligand and each complex as a complex-ligand pair. Before the test normality was assessed using the D’Agostino-Pearson test. The ID8 SRB Ir-7+L-7 dataset had lognormal distribution. […] All other datasets had normal distribution. For better visibility the p values are presented in an excel sheet at https://figshare.com/s/2c942a812caea8869a67. Non-linear regression was performed on the A2780 SRB and the ID8 SRB datasets.
(§2) The assay was performed similar to ([Kovács et al., 2019]). Cells were seeded in 96 well plates the day before the assay. Cells were treated with the compounds for 48 h. Cells were fixed with 10% trichloroacetic acid (TCA). Fixed cells were washed in distilled water 3 times followed by staining with SRB (0.4 m/V% dissolved in 1% acetic acid) for 10 min. Stained cells were washed in 1% acetic acid 5 times; acetic acid was removed and cells were left to dry. Protein-bound SRB was released by adding 100 µl 10 mM Tris base. Plates were measured in a plate photometer (Thermo Scientific Multiscan GO spectrophotometer, Waltham, MA, United States) at 540 nm. On each plate wells were designed to contain vehicle-treated cells. In calculations the readings for these wells was considered as 1 and all readings were expressed relative to these values.
Statistical analysis was performed using 8.0.1 version of Graphpad Prism. Values were tested for normal distribution using the D’Agostino and Pearson normality test. When necessary, values were log normalized or were normalized using the Box-Cox normalization method ([Box and Cox, 1964]) as indicated in the figure captions. […]

Saos osteosarcoma cells = assay: SRB assay (48 h) on Saos cells
Description: (§3) 3 × 10^3 Capan2 cells, 2 × 10^3 Saos cells and 8 × 10^3 L428 were plated to 96 well plates. Cells were treated with the compounds in the concentrations for 48 h. Then for Capan2 and Saos SRB assay was performed, L428 cells were counted using a Burker chamber. Data is represented as average ± SD, from three biological replicates; individual assays were performed in duplicates. Values were normalized for vehicle treated cells, absorbance for vehicle treated cells equals to 1. Normality was checked using the Shapiro-Wilk test. The Saos Os-7 dataset was normalized using the Box-Cox method, other datasets had normal distribution. Each complex was individually assessed for statistical significance using One-way ANOVA test followed by Dunnett’s post hoc test; all values were compared to the values of the lowest concentration. For better visibility the p values are presented in an excel sheet at https://figshare.com/s/2c942a812caea8869a67. Non-linear regression was performed on the Capan2 and Saos datasets.
Saos cells were maintained in DMEM (4.5 g/L glucose) medium supplemented with 10% fetal calf serum, 2 mM glutamine, 1% penicillin-streptomycin.
as §2
(§4) Statistical analysis was performed using 8.0.1 version of Graphpad Prism. […]

ID8 ovarian cancer cells = assay: SRB assay (48 h) on ID8 cells
Description: as §1
ID8 cells were cultured in high glucose DMEM (4.5 g/L glucose) medium supplemented with 4% fetal calf serum, 2 mM glutamine, 1% penicillin-streptomycin, 1% ITS supplement (I3146).
as §2, §4

[2] = test system: Capan2 pancreatic adenocarcinoma cells; assay: SRB assay (48 h) on Capan2 cells
Description: as §3
Capan2 cells were maintained in MEM, 10% fetal bovine serum, 1% Penicillin/Streptomycin, 2 mM Glutamine.
as §2, §4

[3] = test system: cisplatin resistant A2780 cells; assay: SRB assay (48 h) on cisplatin-resistant A2780 cells
Description: 6 × 10^3 cisplatin-resistant A2780 cells were plated to 96 well plates. Cells were treated with the compounds in the concentrations indicated for either 4 h for an MTT assay or for 48 h for an SRB assay. Data is represented as average ± SD, from three biological replicates; individual assays were performed in duplicates. Values were normalized for vehicle treated cells, absorbance for vehicle treated cells equals to 1. Each compound was assessed individually. Normality was assessed using the Shapiro-Wilk test. […] Statistical significance was assessed using One-way ANOVA test comparing all points to the smallest concentration. For better visibility the p values are presented in an excel sheet at https://figshare.com/s/2c942a812caea8869a67. Non-linear regression was performed on the results of the SRB assay datasets.
Cisplatin resistant cells underwent selection (1 µM cisplatin) once a week for 3 days before plating for any assay.
as §2
Statistical analysis was performed using 8.0.1 version of Graphpad Prism. Values were tested for normal distribution using the D’Agostino and Pearson normality test. When necessary, values were log normalized or were normalized using the Box-Cox normalization method ([Box and Cox, 1964]) as indicated in the figure captions.

Structure (SMILES)	A2780 SRB Hill [1]	SAOS SRB Hill (Saos osteosarcoma cells)	ID8 SRB Hill (ID8 ovarian cancer cells)	Capan2 SRB Hill [2]	cisplatin resistant A2780 SRB Hill [3]
CCCC(=O)OCC1OC(n2cc(-c3ccccn3)nn2)C(OC(=O)CCC)C(OC(=O)CCC)C1OC(=O)CCC.Cc1ccc(C(C)C)cc1.F[P-](F)(F)(F)(F)F.[Cl][Os+] (mixture of isomers) [Os-2]	2.25	–	–	–	–
Cc1c(C)c(C)[c-](C)c1C.F[P-](F)(F)(F)(F)F.O=C(OCC1OC(n2cc(-c3ccc4ccccc4n3)nn2)C(OC(=O)c2ccccc2)C(OC(=O)c2ccccc2)C1OC(=O)c1ccccc1)c1ccccc1.[Cl][Ir+2] (mixture of isomers) [Ir-7]	1.84	2.98	2.98	1.78	2.40
CCCCCCC(=O)OCC1OC(n2cc(-c3ccccn3)nn2)C(OC(=O)CCCCCC)C(OC(=O)CCCCCC)C1OC(=O)CCCCCC.Cc1ccc(C(C)C)cc1.F[P-](F)(F)(F)(F)F.[Cl][Os+] (mixture of isomers) [Os-5]	2.33	–	–	–	–
CCCCCC(=O)OCC1OC(n2cc(-c3ccccn3)nn2)C(OC(=O)CCCCC)C(OC(=O)CCCCC)C1OC(=O)CCCCC.Cc1ccc(C(C)C)cc1.F[P-](F)(F)(F)(F)F.[Cl][Os+] (mixture of isomers) [Os-4]	2.41	–	–	–	–
CCCCC(=O)OCC1OC(n2cc(-c3ccccn3)nn2)C(OC(=O)CCCC)C(OC(=O)CCCC)C1OC(=O)CCCC.Cc1ccc(C(C)C)cc1.F[P-](F)(F)(F)(F)F.[Cl][Os+] (mixture of isomers) [Os-3]	2.50	–	–	–	–
Cc1ccc(C(C)C)cc1.F[P-](F)(F)(F)(F)F.O=C(OCC1OC(n2cc(-c3ccc4ccccc4n3)nn2)C(OC(=O)c2ccccc2)C(OC(=O)c2ccccc2)C1OC(=O)c1ccccc1)c1ccccc1.[Cl][Os+] (mixture of isomers) [Os-7]	1.80	1.22	4.48	1.26	1.17
Cc1ccc(C(C)C)cc1.F[P-](F)(F)(F)(F)F.O=C(OCC1OC(n2cc(-c3ccc4ccccc4n3)nn2)C(OC(=O)c2ccccc2)C(OC(=O)c2ccccc2)C1OC(=O)c1ccccc1)c1ccccc1.[Cl][Ru+] (mixture of isomers) [Ru-7]	1.84	5.16	3.78	2.08	1.82
